Measured values as given in ChEMBL document CHEMBL5346973 (J Med Chem, 2023).
pIC50: −log10 of the molar value.

Protein sequences, listed by entry. Tags and fused reporters are not part of them. Residues count along the entry.
UniProt P04756, 21-457 limits assumed: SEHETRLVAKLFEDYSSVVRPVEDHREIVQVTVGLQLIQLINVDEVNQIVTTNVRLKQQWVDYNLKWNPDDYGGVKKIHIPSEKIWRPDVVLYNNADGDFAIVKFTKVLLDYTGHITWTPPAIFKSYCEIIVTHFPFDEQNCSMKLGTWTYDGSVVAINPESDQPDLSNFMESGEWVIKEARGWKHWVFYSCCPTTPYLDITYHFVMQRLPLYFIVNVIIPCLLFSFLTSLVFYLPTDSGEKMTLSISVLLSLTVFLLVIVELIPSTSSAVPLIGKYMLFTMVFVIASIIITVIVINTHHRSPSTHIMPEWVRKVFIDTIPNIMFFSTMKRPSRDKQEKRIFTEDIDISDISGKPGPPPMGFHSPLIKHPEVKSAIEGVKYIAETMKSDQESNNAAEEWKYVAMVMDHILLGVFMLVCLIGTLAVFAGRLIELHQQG
UniProt P09690, 24-501 limits assumed: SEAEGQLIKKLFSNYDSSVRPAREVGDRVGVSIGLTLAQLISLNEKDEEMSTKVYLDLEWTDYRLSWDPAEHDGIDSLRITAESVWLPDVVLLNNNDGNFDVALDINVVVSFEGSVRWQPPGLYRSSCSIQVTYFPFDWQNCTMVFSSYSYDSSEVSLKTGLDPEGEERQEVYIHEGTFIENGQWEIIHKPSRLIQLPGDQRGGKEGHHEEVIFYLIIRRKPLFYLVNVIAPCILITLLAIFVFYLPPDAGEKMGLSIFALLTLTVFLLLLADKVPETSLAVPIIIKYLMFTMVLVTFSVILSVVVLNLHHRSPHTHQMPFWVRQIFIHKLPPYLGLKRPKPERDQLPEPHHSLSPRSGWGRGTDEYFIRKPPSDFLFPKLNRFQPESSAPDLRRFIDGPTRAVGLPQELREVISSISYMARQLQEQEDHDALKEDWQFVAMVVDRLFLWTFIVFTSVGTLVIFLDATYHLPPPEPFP
UniProt P02716, 25-520 limits assumed: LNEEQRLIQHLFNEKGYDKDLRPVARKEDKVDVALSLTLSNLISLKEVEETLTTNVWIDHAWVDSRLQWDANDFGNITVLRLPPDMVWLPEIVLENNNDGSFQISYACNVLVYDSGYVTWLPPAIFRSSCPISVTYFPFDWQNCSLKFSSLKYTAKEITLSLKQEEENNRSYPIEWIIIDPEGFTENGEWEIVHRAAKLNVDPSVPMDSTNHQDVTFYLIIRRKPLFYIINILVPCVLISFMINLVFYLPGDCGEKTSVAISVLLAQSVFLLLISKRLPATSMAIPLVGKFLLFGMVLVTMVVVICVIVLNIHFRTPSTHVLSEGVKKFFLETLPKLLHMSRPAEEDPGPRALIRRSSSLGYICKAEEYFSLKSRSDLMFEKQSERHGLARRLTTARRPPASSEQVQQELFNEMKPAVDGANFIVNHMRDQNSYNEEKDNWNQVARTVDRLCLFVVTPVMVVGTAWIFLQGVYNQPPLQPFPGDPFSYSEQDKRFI
UniProt P20782, 21-493 limits assumed: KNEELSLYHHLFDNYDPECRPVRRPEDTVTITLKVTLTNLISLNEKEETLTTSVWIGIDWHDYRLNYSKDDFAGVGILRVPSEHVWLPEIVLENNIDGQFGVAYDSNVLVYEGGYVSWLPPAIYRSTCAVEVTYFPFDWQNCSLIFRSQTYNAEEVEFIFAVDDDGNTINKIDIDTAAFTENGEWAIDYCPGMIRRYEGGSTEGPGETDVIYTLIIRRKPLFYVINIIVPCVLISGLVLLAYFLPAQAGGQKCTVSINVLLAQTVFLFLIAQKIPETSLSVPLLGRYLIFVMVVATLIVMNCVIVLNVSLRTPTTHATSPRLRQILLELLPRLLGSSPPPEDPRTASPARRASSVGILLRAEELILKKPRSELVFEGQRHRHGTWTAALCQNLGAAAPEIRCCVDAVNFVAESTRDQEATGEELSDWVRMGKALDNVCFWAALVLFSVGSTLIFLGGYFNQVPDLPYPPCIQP

What follows are compounds tested against Nicotinic acetylcholine receptor alpha1/beta1/epsilon/delta (Mus musculus, UniProt P04756+P09690+P02716+P20782) (assay: Antagonist activity at mouse alpha1beta1deltaepsilon nACh receptor expressed in Xenopus oocyte assessed as inhibition of acetylcholine-induced response at -70 mV holding potential by voltage-clamp based electrophysiological assay).

Structure (SMILES)	pIC50
CC[C@H](C)[C@@H]1NC(=O)[C@H](CCCNC(=N)N)NC(=O)[C@H](CCCNC(=N)N)NC(=O)[C@@H](NC(=O)[C@H](Cc2ccc(O)cc2)NC(=O)[C@H](C)NC(=O)[C@H](CCCNC(=N)N)NC(=O)[C@H](CCCNC(=N)N)NC(=O)[C@H](CCCNC(=N)N)NC(=O)[C@H](CC(=O)O)NC(=O)[C@H](Cc2ccc(O)cc2)NC(=O)[C@@H]2CCCN2C(=O)[C@H](CO)NC(=O)[C@H](CCCNC(=N)N)NC(=O)[C@@H]2CSSC[C@H](NC(=O)[C@@H](N)[C@@H](C)O)C(=O)N[C@@H](CCCNC(=N)N)C(=O)N[C@@H](CO)C(=O)N[C@@H](CO)C(=O)NCC(=O)N[C@@H](CCCNC(=N)N)C(=O)N[C@@H](Cc3ccc(O)cc3)C(=O)N2)CSSC[C@@H](C(=O)N[C@H](C(=O)O)C(C)C)NC(=O)[C@H](C)NC(=O)[C@H](CC(=O)O)NC(=O)[C@H]([C@@H](C)O)NC1=O	5.17
CC[C@H](C)[C@@H]1NC(=O)[C@H](CCCNC(=N)N)NC(=O)[C@H](CCCNC(=N)N)NC(=O)[C@@H](NC(=O)[C@H](Cc2ccc(O)cc2)NC(=O)[C@H](CCCNC(=N)N)NC(=O)[C@H](CCCNC(=N)N)NC(=O)[C@H](CCCNC(=N)N)NC(=O)[C@H](CCCNC(=N)N)NC(=O)[C@H](CC(=O)O)NC(=O)[C@H](Cc2ccc(O)cc2)NC(=O)[C@@H]2CCCN2C(=O)[C@H](CO)NC(=O)[C@H](CCCNC(=N)N)NC(=O)[C@@H]2CSSC[C@H](NC(=O)[C@H](C)N)C(=O)N[C@@H](CCCNC(=N)N)C(=O)N[C@@H](CO)C(=O)N[C@@H](CO)C(=O)NCC(=O)N[C@@H](CCCNC(=N)N)C(=O)N[C@@H](Cc3ccc(O)cc3)C(=O)N2)CSSC[C@@H](C(=O)N[C@H](C(=O)O)C(C)C)NC(=O)[C@H](C)NC(=O)[C@H](CC(=O)O)NC(=O)[C@H]([C@@H](C)O)NC1=O	6.43
CC[C@H](C)[C@@H]1NC(=O)[C@H](CCCNC(=N)N)NC(=O)[C@H](CCCNC(=N)N)NC(=O)[C@@H](NC(=O)[C@H](Cc2ccc(O)cc2)NC(=O)[C@H](CCCNC(=N)N)NC(=O)[C@H](CCCNC(=N)N)NC(=O)[C@H](CCCNC(=N)N)NC(=O)[C@H](CCCNC(=N)N)NC(=O)[C@H](CC(=O)O)NC(=O)[C@H](C)NC(=O)[C@@H]2CCCN2C(=O)[C@H](CO)NC(=O)[C@H](CCCNC(=N)N)NC(=O)[C@@H]2CSSC[C@H](NC(=O)[C@@H](N)[C@@H](C)O)C(=O)N[C@@H](CCCNC(=N)N)C(=O)N[C@@H](CO)C(=O)N[C@@H](CO)C(=O)NCC(=O)N[C@@H](CCCNC(=N)N)C(=O)N[C@@H](Cc3ccc(O)cc3)C(=O)N2)CSSC[C@@H](C(=O)N[C@H](C(=O)O)C(C)C)NC(=O)[C@H](C)NC(=O)[C@H](CC(=O)O)NC(=O)[C@H]([C@@H](C)O)NC1=O	6.01
CC[C@H](C)[C@@H]1NC(=O)[C@H](CCCNC(=N)N)NC(=O)[C@H](CCCNC(=N)N)NC(=O)[C@@H](NC(=O)[C@H](Cc2ccc(O)cc2)NC(=O)[C@H](CCCNC(=N)N)NC(=O)[C@H](CCCNC(=N)N)NC(=O)[C@H](CCCNC(=N)N)NC(=O)[C@H](CCCNC(=N)N)NC(=O)[C@H](CC(=O)O)NC(=O)[C@H](Cc2ccc(O)cc2)NC(=O)[C@H](C)NC(=O)[C@H](CO)NC(=O)[C@H](CCCNC(=N)N)NC(=O)[C@@H]2CSSC[C@H](NC(=O)[C@@H](N)[C@@H](C)O)C(=O)N[C@H](CCCNC(=N)N)C(=O)N[C@@H](CO)C(=O)N[C@@H](CO)C(=O)NCC(=O)N[C@@H](CCCNC(=N)N)C(=O)N[C@@H](Cc3ccc(O)cc3)C(=O)N2)CSSC[C@@H](C(=O)N[C@H](C(=O)O)C(C)C)NC(=O)[C@H](C)NC(=O)[C@H](CC(=O)O)NC(=O)[C@H]([C@@H](C)O)NC1=O	6.07
CC[C@H](C)[C@@H]1NC(=O)[C@H](CCCNC(=N)N)NC(=O)[C@H](CCCNC(=N)N)NC(=O)[C@@H](NC(=O)[C@H](Cc2ccc(O)cc2)NC(=O)[C@H](CCCNC(=N)N)NC(=O)[C@H](CCCNC(=N)N)NC(=O)[C@H](CCCNC(=N)N)NC(=O)[C@H](CCCNC(=N)N)NC(=O)[C@H](CC(=O)O)NC(=O)[C@H](Cc2ccc(O)cc2)NC(=O)[C@@H]2CCCN2C(=O)[C@H](CO)NC(=O)[C@H](CCCNC(=N)N)NC(=O)[C@@H]2CSSC[C@H](NC(=O)[C@@H](N)[C@@H](C)O)C(=O)N[C@@H](CCCNC(=N)N)C(=O)N[C@@H](CO)C(=O)N[C@@H](CO)C(=O)N[C@@H](C)C(=O)N[C@@H](CCCNC(=N)N)C(=O)N[C@@H](Cc3ccc(O)cc3)C(=O)N2)CSSC[C@H](C(=O)N[C@H](C(=O)O)C(C)C)NC(=O)[C@H](C)NC(=O)[C@H](CC(=O)O)NC(=O)[C@H]([C@@H](C)O)NC1=O	5.94
CC[C@H](C)[C@@H]1NC(=O)[C@H](CCCNC(=N)N)NC(=O)[C@H](CCCNC(=N)N)NC(=O)[C@@H]2CSSC[C@H](NC(=O)[C@H](Cc3ccc(O)cc3)NC(=O)[C@H](CCCNC(=N)N)NC(=O)CNC(=O)[C@H](CO)NC(=O)[C@H](CO)NC(=O)[C@H](CCCNC(=N)N)NC(=O)[C@@H](NC(=O)[C@@H](N)[C@@H](C)O)CSSC[C@@H](C(=O)N[C@H](C(=O)O)C(C)C)NC(=O)[C@H](C)NC(=O)[C@H](CC(=O)O)NC(=O)[C@H]([C@@H](C)O)NC1=O)C(=O)N[C@@H](C)C(=O)N[C@@H](CO)C(=O)N1CCC[C@H]1C(=O)N[C@@H](Cc1ccc(O)cc1)C(=O)N[C@@H](CC(=O)O)C(=O)N[C@@H](CCCNC(=N)N)C(=O)N[C@@H](CCCNC(=N)N)C(=O)N[C@@H](CCCNC(=N)N)C(=O)N[C@@H](CCCNC(=N)N)C(=O)N[C@@H](Cc1ccc(O)cc1)C(=O)N2	6.33
CC[C@H](C)[C@@H]1NC(=O)[C@H](CCCNC(=N)N)NC(=O)[C@H](CCCNC(=N)N)NC(=O)[C@@H](NC(=O)[C@H](C)NC(=O)[C@H](CCCNC(=N)N)NC(=O)[C@H](CCCNC(=N)N)NC(=O)[C@H](CCCNC(=N)N)NC(=O)[C@H](CCCNC(=N)N)NC(=O)[C@H](CC(=O)O)NC(=O)[C@H](Cc2ccc(O)cc2)NC(=O)[C@@H]2CCCN2C(=O)[C@H](CO)NC(=O)[C@H](CCCNC(=N)N)NC(=O)[C@@H]2CSSC[C@H](NC(=O)[C@@H](N)[C@@H](C)O)C(=O)N[C@@H](CCCNC(=N)N)C(=O)N[C@@H](CO)C(=O)N[C@@H](CO)C(=O)NCC(=O)N[C@@H](CCCNC(=N)N)C(=O)N[C@@H](Cc3ccc(O)cc3)C(=O)N2)CSSC[C@@H](C(=O)N[C@H](C(=O)O)C(C)C)NC(=O)[C@H](C)NC(=O)[C@H](CC(=O)O)NC(=O)[C@H]([C@@H](C)O)NC1=O	5.55
CC[C@H](C)[C@@H]1NC(=O)[C@H](CCCNC(=N)N)NC(=O)[C@H](CCCNC(=N)N)NC(=O)[C@@H](NC(=O)[C@H](Cc2ccc(O)cc2)NC(=O)[C@H](CCCNC(=N)N)NC(=O)[C@H](CCCNC(=N)N)NC(=O)[C@H](C)NC(=O)[C@H](CCCNC(=N)N)NC(=O)[C@H](CC(=O)O)NC(=O)[C@H](Cc2ccc(O)cc2)NC(=O)[C@@H]2CCCN2C(=O)[C@H](CO)NC(=O)[C@H](CCCNC(=N)N)NC(=O)[C@@H]2CSSC[C@H](NC(=O)[C@@H](N)[C@@H](C)O)C(=O)N[C@@H](CCCNC(=N)N)C(=O)N[C@@H](CO)C(=O)N[C@@H](CO)C(=O)NCC(=O)N[C@@H](CCCNC(=N)N)C(=O)N[C@@H](Cc3ccc(O)cc3)C(=O)N2)CSSC[C@@H](C(=O)N[C@H](C(=O)O)C(C)C)NC(=O)[C@H](C)NC(=O)[C@H](CC(=O)O)NC(=O)[C@H]([C@@H](C)O)NC1=O	5.50
CC[C@H](C)[C@@H]1NC(=O)[C@H](CCCNC(=N)N)NC(=O)[C@H](CCCNC(=N)N)NC(=O)[C@@H]2CSSC[C@H](NC(=O)[C@H](Cc3ccc(O)cc3)NC(=O)[C@H](CCCNC(=N)N)NC(=O)CNC(=O)[C@H](C)NC(=O)[C@H](CO)NC(=O)[C@H](CCCNC(=N)N)NC(=O)[C@@H](NC(=O)[C@@H](N)[C@@H](C)O)CSSC[C@@H](C(=O)N[C@H](C(=O)O)C(C)C)NC(=O)[C@H](C)NC(=O)[C@H](CC(=O)O)NC(=O)[C@H]([C@@H](C)O)NC1=O)C(=O)N[C@@H](CCCNC(=N)N)C(=O)N[C@@H](CO)C(=O)N1CCC[C@H]1C(=O)N[C@@H](Cc1ccc(O)cc1)C(=O)N[C@@H](CC(=O)O)C(=O)N[C@@H](CCCNC(=N)N)C(=O)N[C@@H](CCCNC(=N)N)C(=O)N[C@@H](CCCNC(=N)N)C(=O)N[C@@H](CCCNC(=N)N)C(=O)N[C@@H](Cc1ccc(O)cc1)C(=O)N2	6.04
CC[C@H](C)[C@@H]1NC(=O)[C@H](CCCNC(=N)N)NC(=O)[C@H](CCCNC(=N)N)NC(=O)[C@@H]2CSSC[C@H](NC(=O)[C@H](Cc3ccc(O)cc3)NC(=O)[C@H](CCCNC(=N)N)NC(=O)CNC(=O)[C@H](CO)NC(=O)[C@H](CO)NC(=O)[C@H](CCCNC(=N)N)NC(=O)[C@@H](NC(=O)[C@@H](N)[C@@H](C)O)CSSC[C@@H](C(=O)N[C@H](C(=O)O)C(C)C)NC(=O)[C@H](C)NC(=O)[C@H](CC(=O)O)NC(=O)[C@H]([C@@H](C)O)NC1=O)C(=O)N[C@@H](CCCNC(=N)N)C(=O)N[C@@H](CO)C(=O)N1CCC[C@H]1C(=O)N[C@@H](C)C(=O)N[C@@H](CC(=O)O)C(=O)N[C@@H](CCCNC(=N)N)C(=O)N[C@@H](CCCNC(=N)N)C(=O)N[C@@H](CCCNC(=N)N)C(=O)N[C@@H](CCCNC(=N)N)C(=O)N[C@@H](Cc1ccc(O)cc1)C(=O)N2	6.28
CC[C@H](C)[C@@H]1NC(=O)[C@H](CCCNC(=N)N)NC(=O)[C@H](CCCNC(=N)N)NC(=O)[C@@H]2CSSC[C@H](NC(=O)[C@H](Cc3ccc(O)cc3)NC(=O)[C@H](CCCNC(=N)N)NC(=O)CNC(=O)[C@H](CO)NC(=O)[C@H](CO)NC(=O)[C@H](CCCNC(=N)N)NC(=O)[C@@H](NC(=O)[C@@H](N)[C@@H](C)O)CSSC[C@@H](C(=O)N[C@H](C(=O)O)C(C)C)NC(=O)[C@H](C)NC(=O)[C@H](CC(=O)O)NC(=O)[C@H]([C@@H](C)O)NC1=O)C(=O)N[C@@H](CCCNC(=N)N)C(=O)N[C@@H](CO)C(=O)N1CCC[C@H]1C(=O)N[C@@H](Cc1ccc(O)cc1)C(=O)N[C@@H](CC(=O)O)C(=O)N[C@@H](CCCNC(=N)N)C(=O)N[C@@H](C)C(=O)N[C@@H](CCCNC(=N)N)C(=O)N[C@@H](CCCNC(=N)N)C(=O)N[C@@H](Cc1ccc(O)cc1)C(=O)N2	5.79
